Results of unrelated studies side by side (data: NIAID ChemDB).

Shared fields: tests in culture; species: HIV-1

An empty or dashed field is not shown. ECn: concentration that inhibits the pathogen or its effect by n%. Rows are shuffled and stem from different studies.

SMILES	measure	strain	cells	setting	method	mutations	result
O=S1(c2ccccc2)=NC(SSC2=Nc3ccc(Cl)cc3S(=O)(c3ccccc3)=N2)=Nc2ccc(Cl)cc21	EC50	IIIB	CEM + CEM-SS	-	cytopathic effect / XTT	-	>6.9 µM
COC(=O)[C@H](C)NP(=O)(OC[C@H]1O[C@@H](n2cc(C)c(=O)[nH]c2=O)CC1N=[N+]=[N-])Oc1ccccc1	EC50	IIIB	MT-4	-	MTT	-	0.065 µM
Cc1nc2ccccc2n1S(=O)(=O)c1cc(Br)ccc1Br	EC50	NL4-3	HeLa CD4	-	β-galactosidase	WT	0.8 µM
S=C(NCCC1=CCCCC1)Nc1ccc(Br)cn1	EC50	RT-MDR(RT-V106A)	PBMC	-	-	RT-V106A	0.001 µM
CC(C)[C@H](NC(=O)c1ccc2ccccc2n1)C(=O)N[C@@H](Cc1ccccc1)[C@H](O)CN1CC[C@@H](OCc2ccncc2)C[C@H]1C(=O)NC(C)(C)C	EC50	HXB2	H9	-	p24	-	0.001 µM
CC(C)(C)NC(=O)[C@@H]1CN(Cc2cccnc2)CCN1C[C@@H](O)C[C@@H](Cc1ccccc1)C(=O)N[C@H]1c2ccccc2C[C@H]1O	EC90	MN	MT-2	-	RT activity	-	0.032 µM
COC[C@@H](c1ccc(C(F)(F)F)cc1)N1CCN(C2(C)CCN(C(=O)c3c(C)ncnc3C)CC2)C[C@@H]1C	EC50	-	TZM-bl	-	luciferase	G516V M518V F519I	0.0011 µM
Cc1ccc(-n2nnnc2-c2cn[nH]c2-c2cccc(F)c2)cc1	EC50	NL4-3	HeLa CD4	-	β-galactosidase	WT	1.117 µM
c1cc(CN2CCCNCCNCCCNCC2)ccc1CN1CCCNCCNCCCNCC1	EC50	-	Primary lymphocytes + Lymphocytes	-	-	-	0.003 µg/mL
N#CC1C=Cc2ccccc2C1C(=O)/C=C/c1ccccc1	EC50	NL4.3-XCS	HeLa CD4	-	β-galactosidase	M184V (3TC-resistant)	0.138 µM
Nc1nc(=O)n([C@@H]2CC[C@H](CO)O2)cc1F	EC50	LAI	CEM + CEM TK-	-	RT activity	-	0.07 µM
CNc1ccc(Cl)cc1S(=O)(=O)c1ccccc1[N+](=O)[O-]	EC50	NL4-3	CEM + CEM-SS	-	XTT	-	0.2 µM
Cc1cn([C@H]2C=C[C@@H](CO)O2)c(=O)[nH]c1=O	EC50	-	Primary lymphocytes + Lymphocytes	-	-	-	0.8 µM
CC(=O)N1CCC(C(=O)N(CCCN2CCC(Cc3ccc(C(N)=O)cc3)CC2)c2ccc(C)c(Cl)c2)CC1	EC50	R5X4 subtype B_3 recombinant	U87 (CD4+ CCR5+) + U87	-	luciferase	-	0.0011 µM
Cc1cc(C#N)cc(C)c1Oc1ccc([N+](=O)[O-])c(NC2CCN(Cc3ccc(S(C)(=O)=O)cc3)CC2)n1	EC50	IIIB	MT-4	-	MTT	-	0.01 µg/mL
CC(=O)c1ccc(C)cc1NC(C(N)=O)c1c(Cl)cccc1Cl	EC50	clinical isolate A012D AZT-resistant	MT-4	-	p24	-	0.023 µM
Cc1ccc(NC(=S)NCCC2=CCCCC2)nc1	EC50	IIIB	PBMC	-	-	-	0.005 µM
CSc1ccccc1NC(=O)CSc1nnnn1-c1ccccc1SC	EC50	NL4-3	HeLa CD4	-	β-galactosidase	WT	0.447 µM
S=C(NCCc1ccccn1)Nc1ccc(Br)cn1	EC50	RT-MDR(RT-V106A)	PBMC	-	-	RT-V106A	0.02 µM
CC(C)Nc1cccnc1N1CCN(C(=O)c2cc3cc(NS(C)(=O)=O)ccc3[nH]2)CC1	EC90	Group O isolate	PBMC	-	RT activity	-	31 µM
Cc1cn([C@H]2C[C@H](N=[N+]=[N-])[C@@H](CO)O2)c(=O)[nH]c1=O	EC50	xxBRU	PBMC	-	-	-	<0.01 µM
CCc1cc(NCc2nc3c(Cl)ccc(Cl)c3o2)c(=O)[nH]c1C	EC50	IIIB	CEM	-	syncytia	-	0.007 µg/mL
Nc1ncnc2c1ncn2[C@H]1C=C[C@@H](CO)O1	EC50	BaL	MM + M/M	-	p24	-	5 µM
Cc1cc(C#N)cc(C)c1Oc1ccc(N)c(NC2CCN(Cc3ccc(C(N)=O)cc3)CC2)n1	EC50	IIIB	MT-4	-	MTT	Resistant strain (K103N + Y181C)	1.1 µM
Cc1cn([C@H]2C[C@H](N=[N+]=[N-])[C@@H](CO)O2)c(=O)[nH]c1=O	EC50	IIIB-Pyridinone(0.1)(RT-V179N	CEM	-	syncytia	RT-V179N	0.006 µM
Nc1ccn([C@H]2C[C@H](O)[C@](CO)(CF)O2)c(=O)n1	EC50	-	HeLa	-	β-galactosidase	RT-K65R	0.065 µM
O=c1[nH]cnc2c1ncn2[C@H]1CC[C@@H](CO)O1	EC50	IIIB	MT-4	-	MTT	-	8.085 µM
CCc1c(Sc2ccccn2)n(COCc2ccccc2)c(=O)[nH]c1=O	EC50	NL4-3	CEM + CEM-SS	-	cytopathic effect / XTT	-	0.018 µM
O=S1(c2ccccc2)=NC(=S)Nc2ccccc21	EC50	214	CEM + CEM-SS	-	cytopathic effect / XTT	-	1.2 µM
Cc1occc1C(=S)Nc1ccc(Cl)c(/C=N/OC(C)(C)C)c1	EC50	IIIB	CEM	-	p24	RT-Y181C	0.075 µg/mL
Cc1cc2c(c(S(=O)(=O)c3ccccc3[N+](=O)[O-])c1)NCCC2	EC50	IIIB	CEM + CEM-SS	-	XTT	-	0.5 µM
CC(C)c1nc(CN(C)C(=O)N[C@H](C(=O)N[C@@H](Cc2ccccc2)C[C@H](O)[C@H](Cc2ccccc2)NC(=O)OCc2cncs2)C(C)C)cs1	EC50	LAI	PBL	-	RT activity	-	0.02 µM
C#CC1(CO)O[C@@H](n2cc(C)c(=O)[nH]c2=O)[C@H](O)[C@@H]1O	EC50	LAI	MT-4	-	cytopathic effect / MTT	-	>400 µM
O=C(/C=C/c1ccc(O)cc1)c1ccc(O)cc1O	EC50	-	MT-4	-	cytopathic effect / MTT	-	>7.4 µM
Nc1ncnc2c1ncn2CCOCP(=O)(O)O	EC50	-	Primary lymphocytes + Lymphocytes	-	-	-	2.5 µM
Cc1cn([C@H]2C[C@H](N=[N+]=[N-])[C@@H](CO)O2)c(=O)[nH]c1=O	EC90	Subtype B isolate	PBMC	-	RT activity	-	<0.03 µM
COc1ccc2c(c1)N(C(=O)OC(C)C)[C@@H](CSC)C(=S)N2	EC50	IIIB	CEM	-	p24	RT-K103N	0.003 µg/mL
O=C(O)c1cc(O)cc(O)c1N=Nc1ccc(/C=C/c2ccc(N=Nc3c(O)cc(O)cc3C(=O)O)cc2S(=O)(=O)O)c(S(=O)(=O)O)c1	EC50	IIIB	H9	chronic infection	RT activity	-	>100 µg/mL
Cc1cn([C@H]2C[C@H](N=[N+]=[N-])[C@@H](CO)O2)c(=O)[nH]c1=O	EC50	-	MT-4	-	cytopathic effect / MTT	-	0.25 µM
CC(C)CN(C[C@@H](O)[C@H](Cc1ccccc1)NC(=O)[C@H](CC(N)=O)NC(=O)c1ccc2ccccc2n1)C(=O)NC(C)(C)C	EC95	NL4-3	MT-4	-	p24	PR-M46I L63P V82T I84V	1.5 µM
Cc1cc(C)c(Oc2ccc([N+](=O)[O-])c(NC3CCN(Cc4ccncc4)CC3)n2)c(C)c1	EC50	IIIB	MT-4	-	MTT	-	0.833 µg/mL
C[C@H](Cn1cnc2c(N)ncnc21)OCP(=O)(O)O	EC50	IIIB	MT-2	-	p24	-	0.63 µM
CCC[C@@H](c1ccc(C(F)(F)F)cc1)N1CCN(C2(C)CCN(C(=O)c3c(C)ncnc3C)CC2)C[C@@H]1C	EC50	YU-2 Clinical isolates	U-80	-	entry	-	0.00035 µM
Nc1ccn([C@@H]2S[C@H](CO)C=C2F)c(=O)n1	EC90	3TC-resistant (RT M184V)	PBMC	-	-	RT-M184V	~125 µM
Cc1ccnc2c1NC(=O)c1cccnc1N2C1CC1	EC50	IIIB	CEM + CEM-SS	-	cytopathic effect / XTT	RT-K103N Y181C	>3.3 µM
COc1ccc(/C=C/C(=O)/C=C(O)/C=C/c2ccc(OC)c(OC)c2)cc1OC	EC50	-	MT-4	-	cytopathic effect / MTT	-	>4.1 µM
CCCN(C)C(=O)Oc1nsnc1-c1c(Cl)ccc([N+](=O)[O-])c1Cl	EC50	IIIB	MT-4	-	cytopathic effect / MTT	-	0.026 µM
Nc1ccn([C@H]2CC[C@@H](CO)O2)c(=O)n1	EC50	LAI	PBMC	-	-	-	0.00064 µM
Cc1ccnc2c1NC(=O)c1cccnc1N2C1CC1	EC50	IIIB	PBMC	-	-	-	0.034 µM
Cc1ccnc2c1NC(=O)c1cccnc1N2C1CC1	EC50	IIIB-BHAP)(0.1)(RT-L100I	CEM	-	syncytia	RT-L100I	0.06 µg/mL
CO[P@](=O)(c1cc(C)cc(/C=C/C#N)c1)c1c(C(N)=O)[nH]c2ccc(Cl)cc12	EC50	BH10	MT-2	-	-	-	0.0011 µM
Nc1ccn([C@H]2CC[C@@H](CO)O2)c(=O)n1	EC50	Isolate 2748	PBMC	-	p24	-	0.07 µM
Cc1cn([C@H]2C[C@H](N=[N+]=[N-])[C@@H](CO)O2)c(=O)[nH]c1=O	EC50	NL4-3	CEM + CEM-SS	-	cytopathic effect / XTT	RT-Y188C	0.006 µM
O=C(/C=C/c1ccc(O)c(O)c1)/C=C/c1ccc(O)c(O)c1	EC50	-	MT-4	-	cytopathic effect / MTT	-	>38 µM
S=C(NCCC1=CCCCC1)Nc1nc2ccccc2s1	EC50	IIIB	PBMC	-	-	-	0.02 µM
C[C@H](Cn1cnc2c(N)ncnc21)OCP(=O)(O)O	EC50	-	Primary lymphocytes + Lymphocytes	-	-	-	0.37 µM
C#C[C@]1(CO)O[C@@H](n2cnc3c(N)ncnc32)C[C@@H]1O	EC50	IVR207-G190Q	PBMC	-	p24	RT-G190Q	0.0022 µM
CCCN(C)C(=O)Oc1nsnc1-c1c(Cl)ccc(N)c1Cl	EC50	IIIB	MOLT-4	-	cytopathic effect / MTT	-	0.013 µM
Cc1cc(/C=C/C#N)cc(C)c1Nc1ccnc(Nc2ccc(C#N)cc2)n1	EC50	LAI	TZM-bl	-	-	E138G	0.0007 µM
C=C[C@]1(CO)O[C@@H](n2cc(C)c(=O)[nH]c2=O)C[C@@H]1O	EC50	RTMDR	HeLa	-	β-galactosidase	RT	9.7 µM
Nc1ccn([C@H]2CC[C@@H](CO)O2)c(=O)n1	EC50	IIIB	MT-4	-	-	ddI-1-resistant	0.75 µM
Nc1ccn([C@H]2CC[C@@H](CO)O2)c(=O)n1	EC50	IIIB-TIBO(0.1)	CEM	-	syncytia	-	0.04 µM
Nc1nc(=O)n([C@@H]2CS[C@H](CO)O2)cc1F	EC50	LAI	TZM-bl	-	-	-	1.2 µM
O=c1[nH]cnc2c1ncn2[C@H]1CC[C@@H](CO)O1	EC50	HXB2D	MT-2	-	XTT	-	4 ± 0.5 µM
C#C[C@]1(CO)O[C@@H](n2cc(C)c(=O)[nH]c2=O)C[C@@H]1O	EC50	-	HeLa	-	β-galactosidase	RT-K65R	0.53 µM
Cc1ncnc(C)c1C(=O)N1CCC(C)(N2CCN([C@@H](Cc3ccccc3)c3ccc(C(F)(F)F)cc3)[C@@H](C)C2)CC1	EC90	301657 Clinical isolates	PBMC	-	-	-	0.0006 µM
Cc1cc(C)c(Oc2ccc(N)c(NC3CCN(Cc4ccc(C(N)=O)cc4)CC3)n2)c(C)c1	EC50	IIIB	MT-4	-	MTT	Resistant strain (K103N + Y181C)	3.9 µM
COC(=O)[C@H](C)NP(=O)(OC[C@@H]1CC[C@H](n2cnc3c(N)ncnc32)O1)Oc1ccccc1	EC50	IIIB	CEM	-	syncytia	-	0.016 µM
O=C1N(Cc2ccc(CO)cc2)[C@H](Cc2ccccc2)[C@H](O)[C@@H](O)[C@@H](Cc2ccccc2)N1Cc1ccc(CO)cc1	EC95	NL4-3	MT-4	-	p24	-	0.2 µM
CC(C)=CCN1Cc2cc(Cl)cc3[nH]c(=S)n(c23)C[C@@H]1C	EC50	IIIB	CEM	-	p24	RT-M184V	0.011 µg/mL

For reference, 5 entries again:

SMILES,measure,strain,cells,setting,method,mutations,result
CC(C)Nc1cccnc1N1CCN(C(=O)c2cc3cc(NS(C)(=O)=O)ccc3[nH]2)CC1,EC90,Group O isolate,PBMC,-,RT activity,-,31 µM
Nc1ccn([C@@H]2S[C@H](CO)C=C2F)c(=O)n1,EC90,3TC-resistant (RT M184V),PBMC,-,-,RT-M184V,~125 µM
Cc1cc2c(c(S(=O)(=O)c3ccccc3[N+](=O)[O-])c1)NCCC2,EC50,IIIB,CEM + CEM-SS,-,XTT,-,0.5 µM
O=C(/C=C/c1ccc(O)cc1)c1ccc(O)cc1O,EC50,-,MT-4,-,cytopathic effect / MTT,-,>7.4 µM
S=C(NCCc1ccccn1)Nc1ccc(Br)cn1,EC50,RT-MDR(RT-V106A),PBMC,-,-,RT-V106A,0.02 µM